{"source": "paper PMC4554341", "origin": "cited, not measured here", "target": "His37 (UniProt position 37, IIGILHLILWI)", "assay": "NMR", "details": "Membrane-bound tetramer"}
{"substance": "Matrix protein 2 (M2) transmembrane peptide M2TM, M2(22-46) (Influenza A virus)", "values": [{"measurement": "pKa", "result": 7.6}]}
